Results from ChEMBL document CHEMBL3393002, “Diaminopyrimidines, diaminopyridines and diaminopyridazines as histamine H4 receptor modulators” (Bioorg Med Chem Lett, 2015).

By UniProt entry, the sequences of proteins in these tests, tags left out. Where a name states a change or a piece, a line headed by the entry shows the natural chain unless it says otherwise.
UniProt Q9H3N8: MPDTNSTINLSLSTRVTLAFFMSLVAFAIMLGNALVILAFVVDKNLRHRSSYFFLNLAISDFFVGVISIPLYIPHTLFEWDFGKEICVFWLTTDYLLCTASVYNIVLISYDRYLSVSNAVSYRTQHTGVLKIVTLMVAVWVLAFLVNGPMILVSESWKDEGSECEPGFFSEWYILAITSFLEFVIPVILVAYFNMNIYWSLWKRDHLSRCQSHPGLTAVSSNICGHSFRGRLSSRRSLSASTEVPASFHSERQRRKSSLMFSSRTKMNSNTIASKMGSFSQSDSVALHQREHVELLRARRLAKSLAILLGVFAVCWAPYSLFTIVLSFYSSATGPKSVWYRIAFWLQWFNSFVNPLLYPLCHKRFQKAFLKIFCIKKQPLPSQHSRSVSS

Key:
[1] = molecular target: T1, Histamine H4 receptor (Homo sapiens, UniProt Q9H3N8); test: Antagonist activity at human recombinant histamine H4 receptor expressed in SK-N-MC cells assessed as inhibition of forskolin-stimulated cAMP-mediated reporter gene activity; assay type: functional, cell-based; conditions: read-out: pA2 (converted)
[2] = molecular target: T1, Histamine H4 receptor; test: Displacement of [3H]histamine from human recombinant histamine H4 receptor
[3] = molecular target: T1, Histamine H4 receptor; test: Agonist activity at human recombinant histamine H4 receptor expressed in SK-N-MC cells assessed as effect on forskolin-stimulated cAMP-mediated reporter gene activity; assay type: functional, cell-based

| SMILES | Kb [1] | Ki [2] | EC50 [3] |
| --- | --- | --- | --- |
| CN[C@@H]1CCN(c2ccnc(NCC(C)C)c2)C1 | 631 nM | – | – |
| CN[C@@H]1CCN(c2ccnc(NC3CCCC3)c2)C1 | 1000 nM | 4 nM | > 10000 nM |
| CN[C@H]1CCN(c2ccnc(NC3CCCC3)c2)C1 | – | 33 nM | > 10000 nM |

More lines, now with the values ahead:

| Kb [1] | Ki [2] | EC50 [3] | SMILES |
| --- | --- | --- | --- |
| 10 nM | 8 nM | 1000 nM | CN[C@@H]1CCN(c2cnnc(NC3CC4CCC3C4)c2)C1 (stereo partly specified) |
| – | 5 nM | > 10000 nM | CN[C@H]1CCN(c2cnnc(NC3CC4CCC3C4)c2)C1 (stereo partly specified) |
